Laboratory results as given in paper PMC6095690, “Coalescing beneficial host and deleterious antiparasitic actions as an antischistosomal strategy” (eLife, 2018).

Tested on: forskolin evoked cAMP production in HEK293 cells lacking Sm.5HTRL
Test: counter-screen of antagonist hits: forskolin evoked cAMP production in parental reporter line
Type: cell-based
Conditions: antagonist hit counter screen, forskolin 25 µM

| Structure (SMILES) | (-) Sm.5HTR Forskolin response (% of DMSO) |
| --- | --- |
| C[C@@H]1CCOC(=O)/C=C/C=C\C(=O)O[C@@H]2C[C@H]3O[C@@H]4[C@@H]5OC5(C)CCC4(COC(=O)[C@H]1O)[C@]2(C)[C@@]31CO1 (some centres unmarked) | 1.137 % of DMSO |
| CC(=O)OC1C(=O)OCC23CCC4(C)OC4C2OC2CC(OC(=O)/C=C/C=C/C(=O)OCCC1C)C3(C)C21CO1 (centres unmarked) | 1.107 % of DMSO |
